Results of unrelated studies side by side (data: NIAID ChemDB).

Common to all: whole-cell or culture tests; species: Human cytomegalovirus; read by: plaque count; read-out: EC50

Lines come from different laboratories, so protocols vary. Blank or dashed fields: not listed here. ECn: concentration that inhibits the pathogen or its effect by n%.

smiles | cell line | strain | value
CC(C)NS(=O)(=O)c1ccccc1C(=O)N/N=C/c1ccc(Br)cc1 | HEL | DAVIS | >100 µM
CCCCN1C(=O)c2ccccc2N(Cc2ccc(OC)cc2)S1(=O)=O | MRC-5 | AD169 | 4.7 µM
CCOP(=O)(O)CCC(CO)OCn1cnc2c(=O)[nH]c(N)nc21 | MRC-5 | DAVIS | 17 µg/mL
COc1ccccc1CNC(=O)C1=Cc2ccncc2CC1 | MRC-5 | P8 | 11.8 µM
CCCN(C)c1ccc(Oc2ccc(O)cc2)cc1 |  | AD169 | 3.6 µM
Cn1cc(C(=O)NCc2ccc(Cl)cc2)c(=O)c2cc(CN3CCOCC3)ccc21 | HFF | 1117/R (CDV GCV-resistant) | 1.5 µM
Nc1nc(NC2CC2)c2ncn(C=C3CC3CO)c2n1 | HFF | CH | 2.7 µM
NC(=O)c1c(Cl)c(-c2cccnc2)n2c1CCCC2 | HEL | Clinical isolates | 0.005 µM
Nc1nc2c(ncn2COC(CO)CO)c(=O)[nH]1 | HFF | Isolate C4 mutations D344E + Q204R | 5.5 µM
CCCCCCCCCCCCCCCCCCOCCOP1(=O)CO[C@@H](Cn2ccc(N)nc2=O)CO1 | MRC-5 | TOWNE | 0.001 µM
CC(C)Nc1nc2cc(Cl)c(Cl)cc2n1[C@H]1O[C@@H](CO)[C@H](O)[C@@H]1O | HFF | AD169 | 19.4 µM
CC(C)Nc1nc2cc(Cl)c(Cl)cc2n1[C@H]1O[C@@H](CO)[C@H](O)[C@@H]1O | HFF | RCdelta97 | >100 µM
COc1ccc(Oc2ccc(NC3CCCCCCC3)cc2)cc1 |  | AD169 | 40 µM
O=C(NCc1ccc(Cl)cc1)c1cn2c3c(cc(CN4CCOCC4)cc3c1=O)OC(c1cccnc1)C2 | HFF | C8708/17-1-1 | 3.9 µM
C/C(=N/Nc1nc(-c2ccc(Br)cc2)cs1)c1ccc(NC(=O)CN2C(=O)c3ccccc3S2(=O)=O)cc1 | HEL | DAVIS | 20 µM
CC(=O)Nc1ccc(NC(=S)NC(C)c2ccc(F)cc2)cc1 |  |  | >0.5 µg/mL
CN(C)c1ccc(Oc2ccc(O)cc2)cc1 |  | AD169 | 13.6 µM
CC(C)NS(=O)(=O)c1ccccc1C(=O)N/N=C/c1ccc(F)cc1 | HEL | AD169 | >100 µM
Oc1ccc(Oc2ccc(NC3CCCCCC3)cc2)cc1 |  | AD169 | 4.1 µM
OC[C@H]1O[C@@H](n2c(Br)nc3cc(Cl)c(Cl)cc32)[C@H](O)[C@@H]1O |  | 17517 (GCV-susceptible) | 0.46 µM
Nc1ncnc2c1ncn2C=C1CC1CO |  | VR5611 (ganciclovir-susceptible) | 1.7 µM
CCC(C)Nc1ccc(Sc2ccc(O)cc2)cc1 |  | AD169 | 30 µM
Nc1nc2c(ncn2C=C2CC2CO)c(=O)[nH]1 | HFF | 759rD100 | 23.2 µM
Nc1ccn(C[C@@H](CO)OCP(=O)(O)O)c(=O)n1 |  | AD169 | 0.44 µM
COc1cc(OC)c(NC(=S)Nc2ccc(NC(C)=O)cc2)cc1Cl |  |  | >50 µg/mL
Nc1nc2c(ncn2COC(CO)CO)c(=O)[nH]1 | MRC-5 | Isolate T1335 | 2.96 µM
O=C(O)P(=O)(O)O | HEL | U9070 (ganciclovir-resistant) | 85 µM
C[C@@H]1O[C@@H](n2c(Cl)nc3cc(Cl)c(Cl)cc32)[C@H](O)[C@@H]1O |  | AD169 | 0.82 µM
Nc1nc2c(ncn2COC(CO)CO)c(=O)[nH]1 | MRC-5 | AD169 (ganciclovir foscarnet-susceptible) | 3.09 µM
OC[C@H]1O[C@@H](n2c(Br)nc3cc(Cl)c(Cl)cc32)[C@H](O)[C@@H]1O | MRC-5 | 1038RC 4-3-2 (plaque-purified 1038RC strain) | 6 µM
CN(C)c1cccc2c(S(=O)(=O)Nc3ccc(NC(=O)C(C)(C)CO)cc3)cccc12 |  | AD169 | 0.52 µM
Nc1ccn(C[C@@H](CO)OCP(=O)(O)O)c(=O)n1 | MRC-5 | PC92 (ganciclovir- foscarnet-susceptible) | 0.42 µM
Oc1ccc(Oc2ccc(NC3CCCCCCC3)cc2)cc1 |  | AD169 | 6.7 µM
CC(C)Oc1ccccc1CNC(=O)c1ccc2cnccc2n1 | MRC-5 | D16 | 0.2 µM
CCOC1=NS(=O)(=O)N(Cc2ccc(Cl)cc2)c2ccccc21 | MRC-5 | AD169 | 2.8 µM
Nc1nc2c(ncn2COC(CO)CO)c(=O)[nH]1 |  | 1117 3-1-2 (CDV-resistant) | 48.3 µM
Nc1ccn(C[C@@H](CO)OCP(=O)(O)O)c(=O)n1 | MRC-5 | C8914-6 drug-resistant mutant | 0.99 µM
CC(C)CN1C(=O)c2ccccc2N(Cc2ccc(Cl)cc2)S1(=O)=O | MRC-5 | AD169 | 18.4 µM
CC(C)N(C)c1ccc(Oc2ccc(O)cc2)cc1 |  | AD169 | 11.6 µM
Cn1cc(C(=O)NCc2ccc(Cl)cc2)c(=O)c2cc(CN3CCOCC3)ccc21 | HFF | PH | 1 µM
CC(=O)NS(=O)(=O)c1cc(C)c(NC(=O)CN2C(=O)c3ccccc3S2(=O)=O)cc1C | HEL | DAVIS | >100 µM
Nc1ncnc2c1ncn2/C=C1/C[C@H]1CO | HFF | AD169 | 4.2 µM
CCCCCCCCCCCCCCCCOCCCOP(=O)(O)CO[C@H](CO)Cn1ccc(N)nc1=O | MRC-5 | C8708/17-1-1 | 0.001 µM
Nc1nc2c(ncn2COC(CO)CO)c(=O)[nH]1 | HFF | C8708/17-1-1 | 4.3 µM
OC[C@H]1O[C@@H](n2c(Cl)nc3cc(Cl)c(Cl)cc32)[C@H](O)[C@@H]1O | HFF | Isolate C4 mutations D344E + Q204R | 56 µM
O=C(NCCc1ccccc1)C1=Cc2ccncc2CC1 | MRC-5 | D16 | 4.1 µM
OC[C@H]1O[C@@H](n2c(Cl)nc3cc(Cl)c(Cl)cc32)[C@H](O)[C@@H]1O |  | R56 | 12 µM
OC[C@H]1O[C@@H](n2c(Br)nc3cc(Cl)c(Cl)cc32)[C@H](O)[C@@H]1O | HFF | C9208/3-3-1 | 0.8 µM
O=C(O)P(=O)(O)O | MRC-5 | Towne (ganciclovir- foscarnet-susceptible) | 136 µM
CCCCN1C(=O)c2ccccc2N(C(=O)c2ccc(OC)cc2)S1(=O)=O | MRC-5 | AD169 | 3.2 µM
CC(C)=CCn1c(=O)sc2c(=O)[nH]c(N)nc21 |  | AD169 | 16 µM
Nc1nc2c(ncn2[C@@H]2C[C@H](CO)[C@H]2CO)c(=O)[nH]1.O=C(O)P(=O)(O)O | MRC-5 | Towne (ganciclovir- foscarnet-susceptible) | 1.18 µM
C=CCN(c1ccc(NC(=S)Nc2ccc(NC(C)=O)cc2)cc1Cl)C1CCCCC1 |  |  | >10 µg/mL
Nc1nc2c(ncn2/C=C2/CC2(CO)CO)c(=O)[nH]1 | HFF | C8914-6 ganciclovir- and foscarnet-resistant | 9.9 µM
C#CCN1C(=O)c2ccccc2N(Cc2ccc(Cl)cc2)S1(=O)=O | MRC-5 | AD169 | 6.9 µM
O=C(NCc1ccc(Cl)cc1)c1c[nH]c2ccc(CCCO)cc2c1=O |  | GRU | 0.5 µM